Experimental data taken from publication PMC11024961, “Effects of Chrysin and Chrysin-7-sulfate on Ochratoxin A-Albumin Interactions and on the Plasma and Kidney Levels of the Mycotoxin in Rats” (ACS Omega, 2024).

Assay: Fluorescence emission and anisotropy of OTA without albumin
Conditions: for effect on fluorescence intensity of OTA in the absence of albumin, in words: ligand 0–30 μM, OTA 1.0 μM, inner-filter corrected

Molecule	fluorescence anisotropy (r) of OTA (without albumin, PBS pH 7.4)	effect on fluorescence intensity of OTA in the absence of albumin, in words
C[C@@H]1Cc2c(Cl)cc(C(=O)N[C@@H](Cc3ccccc3)C(=O)O)c(O)c2C(=O)O1 [OTA, Ochratoxin A]	0.007 and 0.007 ± 0.001	
hemin		strongly reduced
C=CC1=C(C)/C(=C/c2[nH]c(Cc3[nH]c(/C=C4\NC(=O)C(C)=C4C=C)c(C)c3CCC(=O)O)c(CCC(=O)O)c2C)NC1=O [bilirubin]		strongly reduced

Several values for one entry are separate records, joined by “and”; a condition that tells them apart may be missing. Identical values can stand only once.
